Here are results for 37 test systems from the supplement of paper PMC3578754.

Compound in one test: CC(C)Nc1cccnc1N1CCN(C(=O)c2cc3cc(NS(C)(=O)=O)ccc3[nH]2)CC1 [delavirdine]
The test can be described thus: fold change of IC50 against reference virus; higher = more resistant. Here is the method: (§1)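 Cell-culture drug susceptibility tests of virus bearing the reverse transcriptase of each isolate, gathered from many studies.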

Compound in a further test: Cc1ccnc2c1NC(=O)c1cccnc1N2C1CC1 [nevirapine]
The description is as above. The method, then:
as §1

Compound in another test: CC(C)(C)NC(=O)[C@@H]1CN(Cc2cccnc2)CCN1C[C@@H](O)C[C@@H](Cc1ccccc1)C(=O)N[C@H]1c2ccccc2C[C@H]1O [indinavir]
Put plainly: fold change of IC50 against reference virus; higher = more resistant; Cell-culture drug susceptibility tests of virus bearing the protease of each isolate, gathered from many studies.

Compound in a further test: CC(C)(C)NC(=O)[C@@H]1C[C@@H]2CCCC[C@@H]2CN1C[C@@H](O)[C@H](Cc1ccccc1)NC(=O)[C@H](CC(N)=O)NC(=O)c1ccc2ccccc2n1 [saquinavir]
The description is as above.

Compound in another test: COC(=O)N[C@H](C(=O)N[C@@H](Cc1ccccc1)[C@@H](O)CN(Cc1ccc(-c2ccccn2)cc1)NC(=O)[C@@H](NC(=O)OC)C(C)(C)C)C(C)(C)C [atazanavir]
Described as above.

Compound in the next test: Cc1c(O)cccc1C(=O)N[C@@H](CSc1ccccc1)[C@H](O)CN1C[C@H]2CCCC[C@H]2C[C@H]1C(=O)NC(C)(C)C [nelfinavir]
The description is as above.

Compound in another test: Cc1cccc(C)c1OCC(=O)N[C@@H](Cc1ccccc1)[C@@H](O)C[C@H](Cc1ccccc1)NC(=O)[C@H](C(C)C)N1CCCNC1=O [lopinavir]
The test is described as above.

Compound in a further test: CC(C)c1nc(CN(C)C(=O)N[C@H](C(=O)N[C@@H](Cc2ccccc2)C[C@H](O)[C@H](Cc2ccccc2)NC(=O)OCc2cncs2)C(C)C)cs1 [ritonavir]
Described as above.

Fold change is the IC50 on the isolate divided by the IC50 on a reference virus; 1 = unchanged, higher = more resistant. Changes are given against the subtype B consensus. No active / inactive call. The values were gathered from many studies (numbered anew) with different assays, which the source does not name. Most viruses are clinical isolates; some are laboratory strains or clones with known resistance changes. Isolates with mixed residues are left out; stretches that were not sequenced show no change. Round top values that many isolates share are read here as limits; other very high values and 0.1 may be limits too. For part of these data: The protease changes I3V and N37S, insertions and deletions cannot be read from the source.

Take “HIV-1 isolate 89 (reverse transcriptase changes: S68G K103N K122E I135T V179A Y181C, study 84)”: the “fold change of IC50 against reference virus” value (from here on “fold change of IC50”) in the test with delavirdine was 100.

For “HIV-1 isolate 524 (reverse transcriptase changes: R83K K103N S162C R211G, study 84)”, the “fold change of IC50” value with delavirdine was 110.

Regarding “HIV-1 isolate 150 (reverse transcriptase changes: V106A K122E F214L A272P K277R A376T A400T D460N S468T H483Y K512Q S519N, study 11)”, the “fold change of IC50” value with delavirdine turned out to be 25.

Regarding “HIV-1 isolate 404 (reverse transcriptase changes: K64R K103N I135T Y181C G196E E204D, study 84)”, in the test with delavirdine, the “fold change of IC50” value came out at 62.

Turning to “HIV-1 isolate 207 (reverse transcriptase changes: K102Q S162C F227L K277R, study 1)”, the figures for the “fold change of IC50” value in the test with nevirapine and with delavirdine were 4 and 0.2, respectively.

On to “HIV-1 isolate 32 (reverse transcriptase changes: K64R K103N I135T Y181C G196E E204D, study 84)”, for which, in the test with delavirdine, the “fold change of IC50” value was determined as 62.

For “HIV-1 isolate 1021 (reverse transcriptase changes: K103N I178L G196E, study 84)”, the “fold change of IC50” value with delavirdine was 31.

For “HIV-1 isolate 1196 (reverse transcriptase changes: R83K I135V Q174H V245K, study 84)”, the “fold change of IC50” value with delavirdine is 1.

Turning to “HIV-1 isolate 1573 (reverse transcriptase changes: K70R K103N D123E S162C R211K, study 84)”, the “fold change of IC50” value in the test with delavirdine amounted to 12.

Turning to “HIV-1 isolate 434 (reverse transcriptase changes: V90I K103N K122E I142V Y181C R211K, study 84)”, in the test with delavirdine, the “fold change of IC50” value came to 150.

Regarding “HIV-1 isolate 1562 (reverse transcriptase changes: K102Q S162C P236L K277R, study 1)”, the “fold change of IC50” value with nevirapine was 3; with delavirdine, 83.

On to “HIV-1 isolate 817 (reverse transcriptase changes: V106A K122E F214L P225H A272P K277R A376T A400T D460N S468T H483Y K512Q S519N, study 11)”, for which the “fold change of IC50” value with delavirdine was determined as 4.

Consider “HIV-1 isolate 607 (reverse transcriptase changes: K64R K103N K122E I178M, study 84)”, for which, in the test with delavirdine, the “fold change of IC50” value is 29.

In the case of “HIV-1 isolate 1135 (reverse transcriptase changes: K70R D123E S162C T200I R211K, study 84)”, the “fold change of IC50” value with delavirdine turned out to be 1.

Consider “HIV-1 isolate 158 (reverse transcriptase changes: K102Q K103N S162C K277R, study 1)”, for which the “fold change of IC50” value is 43 with nevirapine and 76 with delavirdine.

As for “HIV-1 isolate 231 (reverse transcriptase changes: K122E Y181C F214L A272P K277R A376T A400T K451R V458L D460N R461K S468P D471N H483Y K512Q S519N E529Q V559I, study 47)”, the results for the “fold change of IC50” value with nevirapine and with delavirdine were 25 and 30, respectively.

As for “HIV-1 isolate 1315 (reverse transcriptase changes: K122E F214L P236L A272P K277R A376T A400T K451R V458L D460N R461K S468P D471N H483Y K512Q S519N E529Q V559I, study 47)”, the “fold change of IC50” value with nevirapine turned out to be 0.1; with delavirdine it was 72.

With “HIV-1 isolate 70 (reverse transcriptase changes: K102Q V106A S162C K277R, study 1)”, the entries for the “fold change of IC50” value with nevirapine and with delavirdine were 70 and 25, respectively.

Consider “HIV-1 isolate 1045 (reverse transcriptase changes: K103N D121Y K122E Y181C G196E R211G V245K, study 84)”, for which the “fold change of IC50” value with delavirdine is no less than 250.

For the test system “HIV-1 isolate 31 (reverse transcriptase changes: K102Q V106A S162C Y181C K277R, study 1)”, the “fold change of IC50” value with nevirapine came out at 70; with delavirdine, 83.

On to “HIV-1 isolate 1313 (reverse transcriptase changes: K122E Y181C F214L P236L A272P K277R A376T A400T K451R V458L D460N R461K S468P D471N H483Y K512Q S519N E529Q V559I, study 47)”, for which the results for the “fold change of IC50” value with nevirapine and with delavirdine were 2 and 240, respectively.

Take “HIV-1 isolate 206 (reverse transcriptase changes: K103N K122E F214L A272P K277R A376T A400T K451R V458L D460N R461K S468P D471N H483Y K512Q S519N E529Q V559I, study 47)”: the “fold change of IC50” value is 25 with nevirapine and 30 in the test with delavirdine.

“HIV-1 isolate 164 (reverse transcriptase changes: K103N D121Y K122E Y181C G196E R211G V245K, study 84)”: the “fold change of IC50” value with delavirdine stood at 140.

As to “HIV-1 isolate 1180 (reverse transcriptase changes: V60I K70R K103N I135T D177E F214L, study 84)”, the “fold change of IC50” value with delavirdine worked out at 9.

As for “HIV-1 isolate 1436 (reverse transcriptase changes: K49R I135V S162C Y181C T200A R211K, study 84)”, the “fold change of IC50” value in the test with delavirdine turned out to be 18.

For the test system “HIV-1 isolate 161 (reverse transcriptase changes: K102Q S162C G190A K277R, study 1)”, the “fold change of IC50” value was determined as 70 with nevirapine and 0.2 in the test with delavirdine.

Take “HIV-1 isolate 1145 (reverse transcriptase changes: D121Y K122E G196E R211G V245K, study 84)”: the “fold change of IC50” value with delavirdine is 1.

As to “HIV-1 isolate 688 (reverse transcriptase changes: K102Q S162C Y188C K277R, study 1)”, the “fold change of IC50” value with nevirapine came out at 70; with delavirdine, 5.3.

Regarding “HIV-1 isolate 175 (reverse transcriptase changes: K122E F214L A272P K277R A376T A400T K451R V458L D460N R461K S468P D471N H483Y K512Q S519N E529Q V559I, study 47)”, the “fold change of IC50” value in the test with nevirapine and with delavirdine was 1 each time.

Take “HIV-1 isolate 1350 (reverse transcriptase changes: L100I K102Q S162C K277R, study 1)”: the “fold change of IC50” value turned out to be 2 in the test with nevirapine and 100 with delavirdine.

For the test system “HIV-1 isolate 444 (reverse transcriptase changes: K64R I135T G196E E204D, study 84)”, the “fold change of IC50” value with delavirdine was determined as 1.

For “HIV-1 isolate 255 (reverse transcriptase changes: S68G K122E I135T V179A, study 84)”, the “fold change of IC50” value with delavirdine stood at 1.

With “HIV-1 isolate 1009 (protease changes: I15V R41K K43R L63P I93L, study 15)”, the “fold change of IC50” value was 1 in the test with indinavir; 0.9 in the test with saquinavir; 1.3 with atazanavir; 0.9 with nelfinavir; 0.8 with lopinavir; 0.7 with ritonavir.

“HIV-1 isolate 795 (protease changes: L10F D30N L63P V77I V82A, study 138)”: the “fold change of IC50” value is 1.8 with indinavir; 2.3 with saquinavir; 2.5 in the test with atazanavir; 45 with nelfinavir; 1.2 with lopinavir; 0.9 with ritonavir.

“HIV-1 isolate 1357 (protease changes: L10I K20R V32I E35D M36I K43T M46I I47V F53L L63P A71T I72V V77L V82C L90M I93L, study 64)”: the “fold change of IC50” value with indinavir is 15; in the test with saquinavir, 15; with atazanavir, 24; with nelfinavir, 25; with lopinavir, 78; in the test with ritonavir, 116.

Turning to “HIV-1 isolate 538 (protease changes: I15V L19T K43R H69Y, study 15)”, the “fold change of IC50” value in the test with indinavir turned out to be 0.6; in the test with saquinavir, 0.5; in the test with atazanavir, 0.6; with nelfinavir, 0.7; in the test with lopinavir, 0.6; with ritonavir, 0.8.

With “HIV-1 isolate 240 (protease changes: K20R N37T R57G L63P G73S V77I V82I I93L, study 145)”, the “fold change of IC50” value came out at 0.8 with indinavir; 0.8 with saquinavir; 1.5 with atazanavir; 3.2 with nelfinavir; 0.6 with lopinavir; 1.2 in the test with ritonavir.
